{"source": "PubChem BioAssay AID1053133", "about": "(Broad Institute, 2014)", "note": "Only a part is listed here, and it is no random draw. Records with an inconclusive call do not appear. Activity calls are given as the source filed them. Cut-off read from the data, not from the text of the source: active = activity change below about -37% (passing the limit was not always enough); inconclusive = no clear call, values can overlap the other calls; tested in A549 cells.", "data": [{"assay": "Vaccinia orthopox stage-specific inhibition, primary screen, cell-based, single point (AID 1053133)", "details": "Vaccinia-infected cells, mCherry/Venus stage reporter fluorescence; active compounds read low; concentration not given here", "values": [{"smiles": "COc1ccc(CN2/C(=N\\P(=O)(Oc3ccccc3)Oc3ccccc3)Cc3ccccc3C2C2CC2)cc1", "note": "(stereo unspecified)", "activity change (mCherry)": "inactive: -8.99%"}]}]}
